Data from article PMC7348096.

By UniProt entry, the sequences of proteins in these tests, tags left out. Where a name states a change or a piece, a line headed by the entry shows the natural chain unless it says otherwise. Residues count along the entry.
UniProt Q12879, 23-1464 limits assumed: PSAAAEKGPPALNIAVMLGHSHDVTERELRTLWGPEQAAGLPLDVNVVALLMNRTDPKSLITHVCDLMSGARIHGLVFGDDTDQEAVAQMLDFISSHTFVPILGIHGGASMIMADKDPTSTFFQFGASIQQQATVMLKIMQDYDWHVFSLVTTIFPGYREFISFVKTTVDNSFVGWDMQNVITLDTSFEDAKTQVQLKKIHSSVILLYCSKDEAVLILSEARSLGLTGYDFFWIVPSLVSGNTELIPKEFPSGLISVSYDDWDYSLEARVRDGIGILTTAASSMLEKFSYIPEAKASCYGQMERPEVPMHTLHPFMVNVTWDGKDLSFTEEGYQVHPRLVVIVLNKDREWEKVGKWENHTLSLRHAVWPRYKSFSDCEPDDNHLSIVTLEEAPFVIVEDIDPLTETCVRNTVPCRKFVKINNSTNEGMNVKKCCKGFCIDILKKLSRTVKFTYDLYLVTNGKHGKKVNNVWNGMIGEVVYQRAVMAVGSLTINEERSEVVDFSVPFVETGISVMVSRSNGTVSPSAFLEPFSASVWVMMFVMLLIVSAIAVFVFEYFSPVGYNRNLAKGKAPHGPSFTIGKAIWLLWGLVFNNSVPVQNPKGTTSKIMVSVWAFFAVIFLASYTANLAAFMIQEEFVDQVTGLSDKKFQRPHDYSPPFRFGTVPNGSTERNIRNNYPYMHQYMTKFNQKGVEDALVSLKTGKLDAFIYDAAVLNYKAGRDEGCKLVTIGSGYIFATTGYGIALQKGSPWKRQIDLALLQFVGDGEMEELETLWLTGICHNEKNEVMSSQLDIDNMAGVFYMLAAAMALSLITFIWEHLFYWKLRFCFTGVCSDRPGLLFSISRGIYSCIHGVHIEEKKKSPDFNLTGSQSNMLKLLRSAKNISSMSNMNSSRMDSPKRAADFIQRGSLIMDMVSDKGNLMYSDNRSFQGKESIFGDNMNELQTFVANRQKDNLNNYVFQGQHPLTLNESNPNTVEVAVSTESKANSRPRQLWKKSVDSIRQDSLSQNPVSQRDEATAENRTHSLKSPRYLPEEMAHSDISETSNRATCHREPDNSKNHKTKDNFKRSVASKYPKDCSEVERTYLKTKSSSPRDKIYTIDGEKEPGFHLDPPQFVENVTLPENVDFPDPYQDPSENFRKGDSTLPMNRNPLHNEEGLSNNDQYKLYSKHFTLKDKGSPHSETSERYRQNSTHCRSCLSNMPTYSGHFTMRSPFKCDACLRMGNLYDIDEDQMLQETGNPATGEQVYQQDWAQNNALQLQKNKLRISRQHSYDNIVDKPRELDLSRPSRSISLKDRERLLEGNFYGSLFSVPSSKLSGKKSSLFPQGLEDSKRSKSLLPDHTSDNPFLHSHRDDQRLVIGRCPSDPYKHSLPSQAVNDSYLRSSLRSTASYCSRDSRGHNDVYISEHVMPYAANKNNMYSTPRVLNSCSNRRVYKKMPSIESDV

Target: GluN1/N2A NMDA receptors (Homo sapiens, UniProt Q05586+Q12879)
Experiment: Flexstation Ca2+ measurements of NMDA/glycine evoked responses in Ltk‐ cells
Settings: NMDA 100 μM + glycine 50 μM; up to 100 μM

Q: How did the “concentration‐dependent inhibition of NMDA receptors” value turn out when `C1CCC(N2CCNCC2)CC1` was run?
A: did not show concentration‐dependent inhibition
